How the values were obtained:
[1] = tested on: bloodstream-form T. brucei; experiment: potency in Creek's minimal medium with inosine or hypoxanthine as purine source; format: cell-based; conditions: same concentration of inosine or hypoxanthine
Tbb msh2+/+ = experiment: Alamar Blue assay on MMR-proficient control trypanosomes; format: cell-based, Trypanosoma brucei; conditions: read-out: Tbb msh2+/+ (EC50; µM) AVG; average of at least 3 independent experiments
Tbb msh2+/- = experiment: Alamar Blue assay on trypanosomes lacking one MSH2 allele; format: cell-based, Trypanosoma brucei; conditions: read-out: Tbb msh2+/- (EC50; µM) AVG; average of at least 3 independent experiments
Tbb msh2-/- = experiment: Alamar Blue assay on trypanosomes lacking both MSH2 alleles; format: cell-based, Trypanosoma brucei; conditions: for EC50: read-out: Tbb msh2-/- (EC50; µM) AVG, average of at least 3 independent experiments

Compound	sensitivity (EC50) in medium with inosine compared to hypoxanthine as purine source [1]	EC50 (Tbb msh2+/+) [µM]	EC50 (Tbb msh2+/-) [µM]	potency against cells with impaired or lost MSH2 activity (Tbb msh2-/-; MSH2^+/− and MSH2^−/− compared with MSH2^+/+)	EC50 (Tbb msh2-/-) [µM]
O=[As]c1ccccc1 (centres unmarked)	not significantly different	–	–	–	–
N-methyl-N′-nitro-N-nitrosoguanidine	–	3.3	8.6	reduced potency	22.4
Phleomycin	–	0.2	0.11	–	0.068

— PMC4604408, “Targeting the Parasite's DNA with Methyltriazenyl Purine Analogs Is a Safe, Selective, and Efficacious Antitrypanosomal Strategy” (Antimicrobial Agents and Chemotherapy, 2015)
